Compound potency records, mixed from different reports. Data source: NIAID ChemDB in PubChem.

All rows: toxicity to cultured cells; cells: MT-4; endpoint: CC50

CCn is the concentration with n% toxicity to the cells. Lines come from different laboratories, so protocols vary. Blank or dashed fields: not listed here.

structure | method | value
Cc1cn([C@H]2C[C@@H](N=[N+]=[N-])[C@@H](CO)O2)c(=O)[nH]c1=O | MTT | >93 µM
NC(=O)c1ncn([C@@H]2O[C@H](CO)[C@@H](O)[C@H]2O)n1 |  | >26 µM
Cc1cc(C#N)cc(C)c1Oc1ccnc(NC2CCN(CC(=O)Nc3ccc(S(N)(=O)=O)cc3)CC2)n1 | MTT | 1.606 µM
CC(C)=CCN1C(C)C(=S)Nc2ccc(Cl)cc2S1(=O)=O | MTT | >200 µM
Cc1cc(C#N)cc(C)c1Oc1ccnc(NC2CCN(CC(=O)Nc3ccc([N+](=O)[O-])cc3)CC2)n1 | MTT | 0.518 µM
[N-]=[N+]=N[C@H]1C[C@H](n2cnc3c(=O)[nH]cnc32)O[C@@H]1CO |  | 17.8 µM
CC1C(=O)Nc2c([N+](=O)[O-])cc(Cl)cc2S(=O)(=O)N1CC1OC1(C)C | MTT | >200 µM
Oc1ccc2ccccc2c1CN1CCN(Cc2c(O)ccc3ccccc23)CC1 |  | >100 µM
O=c1[nH]c(=S)[nH]c2nc(-c3ccc(F)cc3)c(-c3ccc(F)cc3)nc12 | MTT | 56.9 µg/mL
C=C(C)[C@@]12OC3(/C=C/C=C/CCCCCCCCCC)OC1C1[C@@H]4O[C@]4(CO)[C@@H](O)[C@]4(O)C(=O)C(C)=CC4C1(O3)[C@H](C)[C@H]2O |  | 16.3 µM
Cc1cc(-c2ccc(N=Nc3ccc4c(S(=O)(=O)O)cc(S(=O)(=O)O)c(N)c4c3O)c(C)c2)ccc1N=Nc1ccc2c(S(=O)(=O)O)cc(S(=O)(=O)O)c(N)c2c1O |  | 196 µM
O=c1cnn([C@@H]2O[C@H](CO)[C@@H](O)[C@H]2O)c(=O)[nH]1 |  | 0.2 µM
CCOC(=O)c1cn(C)cc1S(=O)(=O)c1cc(Cl)ccc1N | MTT | >200 µM
Cc1cn([C@H]2C[C@H](N=[N+]=[N-])[C@@H](CO)O2)c(=O)[nH]c1=O |  | 5.2 µM
CCOC(=O)c1cn(CC=C(C)C)cc1S(=O)(=O)c1cc(Cl)ccc1NCC=C(C)C | MTT | >200 µM
COc1ccc2c(CN3CCN(Cc4c(O)ccc5cc(OC)ccc45)CC3)c(O)ccc2c1 |  | >100 µM
COc1ccc(CCNc2nc(NC(=S)Nc3ccc(Br)cc3)nc(Oc3cc(=O)oc4ccccc34)n2)cc1OC | MTT | 62.7 µg/mL
Cc1ccc(-c2nc3[nH]c(=S)[nH]c(=O)c3nc2-c2ccc(C)cc2)cc1 | MTT | 12.7 µg/mL
O=C1Nc2ccc(Cl)cc2S(=O)(=O)c2cn(Cc3cccc4ccccc34)cc21 | MTT | >200 µM
CC1CCN(CCCN2c3ccccc3NC(C)c3cccn32)CC1 |  | 173 µM
O=c1[nH]cnc2c1ncn2[C@H]1CC[C@@H](CO)O1 | MTT | >20 µg/mL
c1cc(CN2CCCSCCSCCCNCC2)ccc1CN1CCCSCCSCCCNCC1 |  | >6.8 µM
Cc1cc(C)cc(NC(=O)CN2CCC(Nc3nccc(Oc4c(C)cc(C#N)cc4C)n3)CC2)c1 | MTT | 2.311 µM
CC(=O)Oc1ccc2ccccc2c1Cc1c[nH]c2ccccc12 |  | 30 µM
C[C@@H]1C(=O)Nc2ccc(Cl)cc2S(=O)(=O)N1Cc1c(F)cccc1F | MTT | >200 µM
Nc1ncnc2c1ncn2[C@H]1C[C@H](N)[C@@H](CO)O1 |  | 21.8 µM
O=c1ccc2ccc(O)c(CN3CCN(Cc4c(O)ccc5ccc(=O)oc45)CC3)c2o1 |  | 20 µM
CCOc1ccc(NC(=O)Nc2nc(NCCc3ccc(OC)c(OC)c3)nc(Oc3cc(=O)oc4ccccc34)n2)cc1 | MTT | 30.15 µg/mL
Cc1cc(C#N)cc(C)c1Oc1ccnc(NC2CCN(CC(=O)Nc3ccc(F)cc3)CC2)n1 | MTT | 1.812 µM
COc1cccc(-c2nc3[nH]c(=S)[nH]c(=O)c3nc2-c2cccc(OC)c2)c1 | MTT | 63.9 µg/mL
COc1ccc(CCNc2nc(NC(=S)Nc3ccc(F)cc3)nc(Oc3cc(=O)oc4ccccc34)n2)cc1OC | MTT | 14.55 µg/mL
Cc1cc(C#N)cc(C)c1Oc1ccnc(NC2CCN(CC(=O)Nc3ccc(Cl)cc3Cl)CC2)n1 | MTT | 1.751 µM
CCOC(=O)C1Nc2ccccc2S(=O)(=O)n2cccc21 |  | >300 µM
O=c1[nH]cc([C@H]2C[C@H](O)[C@H](CO)[NH2+]2)c(=O)[nH]1 | MTT | >20 µM
N#C/C=C1/c2cc(S)cc([N+](=O)[O-])c2-c2c1cc(S(=O)(=O)NCc1ccccc1)cc2[N+](=O)[O-] | MTT / absorbance | >100 µM
Nc1ncnc2c1ncn2CCOCP(=O)(O)O |  | 67 µM
CN1C(=O)c2cccn2S(=O)(=O)c2ccc(Cl)cc21 |  | 110 µM
CCN(C(C)C(=O)O)S(=O)(=O)c1cc(Cl)ccc1N | MTT | >200 µM
O=C1Nc2cc(Cl)ccc2S(=O)(=O)n2cccc21 |  | >300 µM
CCN1CCn2c(=O)[nH]c3cc(Cl)cc(c32)S1(=O)=O | MTT | >200 µM
Cc1cn([C@H]2C[C@H](N=[N+]=[N-])[C@@H](CO)O2)c(=O)[nH]c1=O | MTT / absorbance | 9.4 µM
CC(C)=CCN1C(C)Cn2c(=O)n(CC=C(C)C)c3cc(Cl)cc(c32)S1(=O)=O | MTT | 63 µM
Cc1cn([C@H]2C[C@H](F)[C@@H](CO)O2)c(=O)[nH]c1=O |  | 1.1 µM

Again, the opening 4 rows:

structure	method	value
Cc1cn([C@H]2C[C@@H](N=[N+]=[N-])[C@@H](CO)O2)c(=O)[nH]c1=O	MTT	>93 µM
NC(=O)c1ncn([C@@H]2O[C@H](CO)[C@@H](O)[C@H]2O)n1		>26 µM
Cc1cc(C#N)cc(C)c1Oc1ccnc(NC2CCN(CC(=O)Nc3ccc(S(N)(=O)=O)cc3)CC2)n1	MTT	1.606 µM
CC(C)=CCN1C(C)C(=S)Nc2ccc(Cl)cc2S1(=O)=O	MTT	>200 µM